Compound potency records, mixed from different reports. Data source: NIAID ChemDB in PubChem.

CCn is the concentration with n% toxicity to the cells.

CCN(CC)CC#CCOC(=O)C(O)(c1ccccc1)c1cccs1 ; species: Mycobacterium tuberculosis ; strain or isolate: H37Rv ; kind: culture ; endpoint: inhibition ; dose: 6.25 µg/mL ; value: 9%
[N-]=[N+]=Nc1ccc([N+](=O)[O-])cc1 ; species: Mycobacterium tuberculosis ; strain or isolate: H37Rv ; kind: culture ; endpoint: MIC ; value: >100 µg/mL
Cc1c([N+](=O)[O-])cc([N+](=O)[O-])c2oc3ccc([N+](=O)[O-])cc3c(=O)c12 ; species: Mycobacterium smegmatis ; strain or isolate: ATCC 607 ; kind: culture ; endpoint: MIC ; value: 1.75 µg/mL
NC(=NCCN1CCN=C1N[N+](=O)[O-])N[N+](=O)[O-] ; species: Mycobacterium tuberculosis ; strain or isolate: H37Rv ; kind: culture ; read by: resazurin ; endpoint: MIC bound ; value: >6.25 µg/mL
O=[N+]([O-])c1cn(CC(O)CCl)c([N+](=O)[O-])n1 ; species: Mycobacterium tuberculosis ; strain or isolate: H37Rv ; kind: culture ; endpoint: MIC ; value: 0.97 µg/mL
O=C(c1ccc([N+](=O)[O-])cc1[N+](=O)[O-])c1ccc([N+](=O)[O-])cc1[N+](=O)[O-] ; species: Mycobacterium tuberculosis ; strain or isolate: H37Rv ; kind: culture ; endpoint: MIC ; value: >100 µg/mL
O=[N+]([O-])N1CCCS1(=O)=O ; species: Mycobacterium tuberculosis ; strain or isolate: H37Rv ; kind: culture ; read by: BACTEC ; endpoint: MIC bound ; value: >12.5 µg/mL
COc1cccc(Nc2c([N+](=O)[O-])cc([N+](=O)[O-])cc2[N+](=O)[O-])c1 ; species: Pneumocystis carinii ; target: DHFR ; kind: target ; endpoint: IC50 ; value: 100 µM
O=[N+]([O-])c1cc(Cn2nnc(-c3cc([N+](=O)[O-])cc([N+](=O)[O-])c3)n2)cc([N+](=O)[O-])c1 ; species: Mycobacterium kansasii ; strain or isolate: My 235/80 ; conditions: 14 d ; kind: culture ; endpoint: MIC ; value: 2 µM
Cc1cn([C@H]2C[C@H](F)[C@@H](COP(=O)(O)C#N)O2)c(=O)[nH]c1=O ; species: HIV-1 ; strain or isolate: SCV 4005 ; kind: culture ; cell line: MT-4 ; read by: RT activity ; endpoint: EC50 ; value: 0.13 µM
Nc1cc([As]=O)ccc1O ; kind: toxicity ; cell line: MT-2 ; endpoint: CC50 ; value: 0.4 µg/mL
[N-]=[N+]=NC(N)=O ; species: Mycobacterium tuberculosis ; strain or isolate: H37Rv ; kind: culture ; endpoint: MIC ; value: 50 µg/mL
O=P1(c2ccccc2)Nc2ncnc(Cl)c2N1 ; species: Mycobacterium tuberculosis ; strain or isolate: H37Rv ; kind: culture ; read by: BACTEC ; endpoint: inhibition ; dose: 12.5 µg/mL ; value: 11%
Cc1c([N+](=O)[O-])c(C)c(S(=O)(=O)c2c(C)c([N+](=O)[O-])c(C)c([N+](=O)[O-])c2C)c(C)c1[N+](=O)[O-] ; species: HIV-1 ; strain or isolate: RF ; kind: culture ; cell line: CEM + CEM-SS ; read by: XTT ; endpoint: EC50 ; value: >100 µg/mL
CN1C(=O)N(C)P12(Cl)N(C)C(=O)N2C ; species: Mycobacterium tuberculosis ; strain or isolate: H37Rv ; kind: culture ; read by: BACTEC ; endpoint: inhibition ; dose: 12.5 µg/mL ; value: 9%
NC(=NCCC[C@H](N)C(=O)O)NP(=O)(O)O ; kind: toxicity ; cell line: HeLa ; endpoint: CC50 ; value: >200 µg/mL

The last 2 rows once more:

structure	species	target	strain or isolate	conditions	kind	cell line	read by	endpoint	dose	value
CN1C(=O)N(C)P12(Cl)N(C)C(=O)N2C	Mycobacterium tuberculosis		H37Rv		culture		BACTEC	inhibition	12.5 µg/mL	9%
NC(=NCCC[C@H](N)C(=O)O)NP(=O)(O)O					toxicity	HeLa		CC50		>200 µg/mL

Inhibition is in % at the dose shown (toxicity tests: loss of growth or viability). Neighbouring rows are from separate reports. An empty or dashed field is not shown. ICn: concentration for n% inhibition. ECn is the concentration giving n% inhibition of infection, replication or growth. MIC bound: limit read from a one-dose screen.